Assays:
[1] = biological target: T1, human Kv1.3 voltage-gated potassium channel (human), P22001; test: cell-based or functional assay
[2] = biological target: T2, human Kv1.1 voltage-gated potassium channel (human), Q09470; test: cell-based or functional assay
T2 chain: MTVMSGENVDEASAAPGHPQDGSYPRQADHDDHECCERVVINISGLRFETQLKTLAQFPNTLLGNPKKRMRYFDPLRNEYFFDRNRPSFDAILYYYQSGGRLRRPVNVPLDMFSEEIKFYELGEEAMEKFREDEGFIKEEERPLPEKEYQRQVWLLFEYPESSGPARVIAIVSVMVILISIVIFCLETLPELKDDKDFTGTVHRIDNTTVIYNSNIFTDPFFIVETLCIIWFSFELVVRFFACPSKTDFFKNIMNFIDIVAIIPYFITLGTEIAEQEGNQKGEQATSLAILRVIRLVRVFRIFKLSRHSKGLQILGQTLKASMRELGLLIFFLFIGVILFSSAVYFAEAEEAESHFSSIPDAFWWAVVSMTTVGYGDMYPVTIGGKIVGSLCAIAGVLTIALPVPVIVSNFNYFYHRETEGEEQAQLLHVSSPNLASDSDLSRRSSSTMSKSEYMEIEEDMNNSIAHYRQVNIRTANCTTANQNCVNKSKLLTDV

[3] = biological target: T1, human Kv1.3 voltage-gated potassium …; test: IonWorks Quattro planar patch clamp; details: chains peptide; modification not given
[4] = biological target: T2, human Kv1.1 voltage-gated potassium …; test: IonWorks Quattro planar patch clamp; details: chains peptide; modification not given
[5] = biological target: T1, human Kv1.3 voltage-gated potassium …; test: PatchXpress electrophysiology; PX, IC50 Transit; details: chains peptide; modification not given
[6] = biological target: T2, human Kv1.1 voltage-gated potassium …; test: PatchXpress electrophysiology; PX, IC50 Transit; details: chains peptide; modification not given
[7] = biological target: T1, human Kv1.3 voltage-gated potassium …; test: PatchXpress electrophysiology; PX; details: chains peptide; modification not given

Row | Binder | Kv1.3 (IC50, pM); whole cell patch clamp ePhys [1] | Kv1.3 Selectivity (=Kv1.1/Kv.3 IC50) [1] | Kv1.1 (IC50, pM); whole cell patch clamp ePhys [2] | IC50 [3] | IC50 [4] | IC50 [5] | IC50 [6] | IC50 [7]
1 | GVIINVKCKISRQCLEPCKKAGMRFGKCANGKCHCTPK [OSK1 peptide analog M29A] | 33 pM | 105 fold | 3470 pM | 0.074 nM | 2.62 nM | – | – | –
2 | GVIINVKCKISAQCLEPCKKAGMRFGKCMNGKCHCTPK (modifications not checked) [OSK1 peptide analog R12A] | 25 pM | 17 fold | 440 pM | – | – | 0.008 nM | 0.644 nM | 0.008 nM

From patent US20090281028A1
